A mixed list of measured activities; the numbers were collected in NIAID ChemDB.

Shared fields: tests on isolated targets; species: HIV-1; target: Reverse transcriptase

Blank or dashed fields: not listed here.

compound | strain | measure | changes | method | result
Cc1cn([C@H]2C[C@H](N=[N+]=[N-])[C@@H](COP([O-])(=S)OP(=O)(O)C(F)(F)P(=O)(O)O)O2)c(=O)[nH]c1=O | - | Ki | - | - | 0.09 µM
O=c1c2cccn2c2cc(Cl)c(Cl)cc2n1CCNC(=S)Nc1ccc(Br)cn1 | - | Ki | RT-Y181I | nucleotide incorporation | 0.3 µM
CNC(=O)CCCCC=C(c1cc(OC)c(OC)c(C(=O)OC)c1)c1cc(OC)c(OC)c(C(=O)OC)c1 | - | IC50 | - | nucleotide incorporation | 0.804 µM
N#Cc1cc(Cl)cc(Oc2c(Br)ccc(Cn3c(=O)[nH]c4ncccc43)c2F)c1 | - | IC50 | Wild type | scintillation proximity / radiometric | 0.006 µM
COc1cc2c(c(OC)c1OC)-c1c(cc3c(c1OC)OCO3)C[C@H](C)[C@@](C)(O)[C@H]2OC(=O)c1ccccc1 | - | IC50 | - | nucleotide incorporation | >100 µM
O=c1c2cccn2ccn1CCNC(=S)Nc1ccc(Br)cn1 | - | Ki | RT-Y181I | nucleotide incorporation | 0.43 µM
CCOC(=O)[C@@H](Cc1ccc(O)c(O)c1)OC(=O)/C=C/c1ccc(O)c(O)c1/C=C/c1ccc(O)c(O)c1 | - | IC50 | - | nucleotide incorporation / radiometric | 56.38 µg/mL
N#Cc1cc(Cl)cc(Oc2c(Br)ccc(Cn3cn[nH]c3=O)c2F)c1 | K103N/Y181C | IC50 | NNRTI-resistant (RT K103N/Y181C) | scintillation proximity / radiometric | 0.013 µM
Nc1ncnc2c1ncn2[C@@H]1O[C@H](COP(=O)(O)OP(=O)(O)OP(=O)(O)O)C[C@@H]1F | - | IC50 | - | nucleotide incorporation | 76 µM
Nc1cc(O)c2cc(N=Nc3ccc(N=Nc4ccc(N=Nc5ccc6cc(S(=O)(=O)O)cc(S(=O)(=O)O)c6c5)c5ccccc45)c4cc(S(=O)(=O)O)ccc34)c(S(=O)(=O)O)cc2c1 | RF | IC50 | - | RT activity | 5.6 µM
COc1cc(O)c2c(=O)cc(-c3c(OC)c(OC)c(OC)c(OC)c3OC)oc2c1 | - | IC50 | - | nucleotide incorporation / radiometric | >200 µg/mL
NC(N)=NCCC[C@H](NC(=O)[C@H](CCCN=C(N)N)NC(=O)[C@@H](N)CCCN=C(N)N)C(=O)O | - | IC50 | - | ELISA | 24 µM
O=C(O)P(O)(O)=S | - | IC50 | - | - | 0.7 µM
O=c1c2cccn2c2ccccc2n1CCNC(=S)Nc1ccc(Br)cn1 | - | Ki | RT-K103N | nucleotide incorporation | 0.1 µM
S=C(NCCc1ccc(Br)cc1)Nc1ccc(Br)cn1 | - | Ki | - | scintillation proximity | 6.3 µM
O=C(O)[C@H]1O[C@@H](Oc2cc3oc(-c4ccccc4)cc(=O)c3c(O)c2O)[C@H](O)[C@@H](O)[C@@H]1O | - | IC50 | - | - | 2 µg/mL
CCOC(=O)c1cn(Cc2ccncc2)c(Sc2cc(Cl)cc(Cl)c2)c1C1CCCCC1 | - | IC50 | - | nucleotide incorporation / radiometric | 0.61 µM
C[C@H](CCC(=O)NCCS(=O)(=O)O)[C@H]1CC[C@H]2[C@@H]3CC[C@@H]4C[C@H](OS(=O)(=O)O)CC[C@]4(C)C3CC[C@]12C | - | IC50 | - | - | 97 µM
CCCN(C)c1nc([C@@H](C)c2c(F)cccc2F)c(C)c(=O)[nH]1 | - | IC50 | Y1811 | RT activity | >20 µM
[B-][P@](=O)(OC[C@H]1O[C@@H](n2cc(C)c(=O)[nH]c2=O)C[C@@H]1N=[N+]=[N-])OP(=O)(O)OP(=O)(O)O | - | Ki | - | - | 0.009 µM
Cc1c(Cc2c(Cl)cccc2Cl)nc(SCc2ccc(C(C)C)cc2)[nH]c1=O | - | IC50 | RT-181I | nucleotide incorporation / radiometric | >400 µM
O=C1c2cccnc2C(=O)N1CCNC(=S)Nc1ccc(Br)cn1 | - | Ki | RT-Y188L | nucleotide incorporation | 0.6 µM
C[C@H](CCC(=O)NCCS(=O)(=O)O)[C@H]1CC[C@H]2[C@@H]3CC[C@@H]4C[C@H](O)CC[C@]4(C)C3CC[C@]12C | - | IC50 | - | - | >1000 µM
NC(=O)OCc1cn(Cc2ccncc2)c(Sc2cc(Cl)cc(Cl)c2)c1C1CCC1 | - | IC50 | RT-Y181I | nucleotide incorporation / radiometric | 150 µM
O=C(NCCCN1CCN(CCCNC(=O)c2cc3cc(O)c(O)cc3[nH]2)CC1)c1cc2cc(O)c(O)cc2[nH]1 | - | IC50 | - | RT activity / fluorescence | >100 µM
Cc1c(C(C)c2c(F)cccc2F)nc(SC2CCCC2)[nH]c1=O | - | IC50 | RT-K103N | nucleotide incorporation / radiometric | 0.03 µM
COc1ccc(CSc2nc(Cc3c(F)cccc3F)c(C)c(=O)[nH]2)cc1 | - | IC50 | RT-181I | nucleotide incorporation / radiometric | >400 µM
Cc1cc(-c2ccc(N=Nc3ccc4c(S(=O)(=O)O)cc(S(=O)(=O)O)c(N)c4c3O)c(C)c2)ccc1N=Nc1ccc2c(S(=O)(=O)O)cc(S(=O)(=O)O)c(N)c2c1O | RF | IC50 | - | RT activity | 37.2 µM
CCN1c2ncccc2C(=O)N(C)c2ccc(-c3c[nH]c4cnccc34)nc21 | - | IC50 | RT-V106A | nucleotide incorporation | 0.288 µM
Cc1cc(C)cc(S(=O)(=O)c2c(C(=O)NNCCO)[nH]c3ccc(Cl)cc23)c1 | - | IC50 | - | nucleotide incorporation / radiometric | 0.06 µM
N#Cc1cc(Cl)cc(Oc2c(Br)ccc(CN3CC(=O)NC3=O)c2F)c1 | - | IC50 | Wild type | scintillation proximity / radiometric | 0.009 µM
CC(C)c1c(CO)cn(Cc2ccncc2)c1Sc1cc(Cl)cc(Cl)c1 | - | IC50 | - | nucleotide incorporation / radiometric | 0.2 µM
CC(C)=CC(=O)C[C@@H](C)[C@H]1CC[C@@]2(C)[C@@H]3CC[C@H]4C(C)(C)[C@@H](O)C[C@H](O)[C@@]45C[C@@]35CC[C@]12C | - | IC50 | - | nucleotide incorporation / radiometric | 156.8 µg/mL
COC(=O)[C@@H](Cc1ccc(O)c(O)c1)OC(=O)/C=C/c1ccc(O)c(O)c1/C=C/c1ccc(O)c(O)c1 | - | IC50 | - | nucleotide incorporation / radiometric | 50.58 µg/mL
Cc1cn([C@H]2C[C@H](F)[C@@H](COP(=O)(O)OP(=O)(O)OP(=O)(O)O)O2)c(=O)[nH]c1=O | - | IC50 | - | - | 0.035 µM
O=C(/C=C/c1ccc(O)c2c1[C@H](C(=O)O)[C@H](c1ccc(O)c(O)c1)O2)O[C@H](Cc1ccc(O)c(O)c1)C(=O)O | - | IC50 | - | nucleotide incorporation / radiometric | 43.64 µg/mL
N#Cc1ccc(Nc2nc(Oc3ccc(-c4ccc(C#N)cc4)cc3[N+](=O)[O-])c3sccc3n2)cc1 | IIIB | IC50 | - | RT activity / fluorescence | 0.063 µM
Cc1c(Cc2c(Cl)cccc2Cl)nc(SCc2ccc(F)cc2)[nH]c1=O | - | IC50 | RT-181I | nucleotide incorporation / radiometric | >400 µM
C[C@H](CCC(=O)O)[C@H]1CC[C@H]2[C@@H]3CC[C@@H]4C[C@H](O)CC[C@]4(C)[C@H]3CC[C@]12C | - | IC50 | - | - | >1000 µM
COc1cc2c(c(OC)c1OC)-c1c(cc(OC)c(OC)c1OC)C[C@](C)(O)[C@@H](C)C2 | - | IC50 | - | nucleotide incorporation | >100 µM
Cc1ccc(CCNC(=S)Nc2ccc(Br)cn2)cc1 | - | Ki | - | scintillation proximity | 0.25 µM
N#Cc1cc(Cl)cc(Oc2c(Br)ccc(Cn3[nH]c(=O)[nH]c3=O)c2F)c1 | K103N/Y181C | IC50 | NNRTI-resistant (RT K103N/Y181C) | scintillation proximity / radiometric | 0.005 µM
COc1cc(CSc2nc(Cc3c(F)cccc3F)c(C)c(=O)[nH]2)cc(OC)c1 | - | IC50 | RT-K103N | nucleotide incorporation / radiometric | >400 µM
COc1cc(-c2ccc(N=Nc3c(S(=O)(=O)[O-])cc4cc(S(=O)(=O)[O-])cc(N)c4c3O)c(OC)c2)ccc1N=Nc1c(S(=O)(=O)[O-])cc2cc(S(=O)(=O)[O-])cc(N)c2c1O.[Na+].[Na+].[Na+].[Na+] | RF | IC50 | - | RT activity | 1.1 µM
COc1cc2c(c(OC)c1OC)-c1c(cc3c(c1OC)OCO3)C[C@H](C)[C@H](C)C2 | - | IC50 | Y181C | nucleotide incorporation | 55 µM
Cc1cn([C@H]2C[C@H](N=[N+]=[N-])[C@@H](COP(=O)(O)OP(=O)(O)C(F)(F)P(=O)(O)O)O2)c(=O)[nH]c1=O | - | IC50 | - | RT activity | 0.62 µM
CNc1nc(Cc2c(F)cccc2F)cc(=O)[nH]1 | - | IC50 | - | nucleotide incorporation / radiometric | 2.5 µM
Cc1n[nH]c(=O)n1Cc1ccc(Br)c(Oc2cc(Cl)cc(C#N)c2)c1F | K103N/Y181C | IC50 | NNRTI-resistant (RT K103N/Y181C) | scintillation proximity / radiometric | 0.012 µM
CC(C)=CC(=O)C[C@@H](C)[C@H]1CC[C@@]2(C)[C@@H]3CC[C@H]4[C@](C)(C(=O)O)[C@@H](O)CC[C@@]45C[C@@]35CC[C@]12C | - | IC50 | - | nucleotide incorporation / radiometric | <22.5 µg/mL
O=C(NCCc1ccc(O)c(O)c1)c1cc2cc(O)c(O)cc2[nH]1 | - | IC50 | - | RT activity / fluorescence | >100 µM
Oc1ccc(-c2c3nc(c(-c4ccc(O)cc4)c4ccc([nH]4)c(-c4ccc(O)cc4)c4nc(c(-c5ccc(O)cc5)c5ccc2[nH]5)C=C4)C=C3)cc1 | - | IC50 | - | RT activity | 3 µM
COc1cc(CSc2nc(Cc3c(Cl)cccc3Cl)c(C)c(=O)[nH]2)cc(OC)c1 | - | IC50 | RT-181I | nucleotide incorporation / radiometric | >400 µM
Cc1cc(-c2ccc(N=Nc3c(S(=O)(=O)O)cc4cc(S(=O)(=O)O)cc(N)c4c3O)c(C)c2)ccc1N=Nc1c(S(=O)(=O)O)cc2cc(S(=O)(=O)O)cc(N)c2c1O | RF | IC50 | - | RT activity | 1.3 µM
Cc1cc(-c2ccc(C#N)cc2)cc(C)c1Oc1nc(Nc2ccc(C#N)cc2)nc2ccsc12 | IIIB | IC50 | - | RT activity / fluorescence | 0.044 µM
Cc1c(Cc2c(F)cccc2F)nc(SCc2ccc(C#N)cc2)[nH]c1=O | - | IC50 | RT-181I | nucleotide incorporation / radiometric | >400 µM
OCc1cn(Cc2ccncc2)c(Sc2cc(Cl)cc(Cl)c2)c1C1CCC1 | - | IC50 | RT-K103N | nucleotide incorporation / radiometric | 43.3 µM
CSCC1C(=O)SCC(NC(=O)c2nc3ccccc3cc2O)C(=O)NCC(=O)N(C)C2CSSCC(C(=O)N1C)N(C)C(=O)CNC(=O)C(NC(=O)c1nc3ccccc3cc1O)CSC(=O)C(CSC)N(C)C2=O | IIIB | IC50 | - | - | 900 µM

Repeating the first 8 entries:

compound | strain | measure | changes | method | result
Cc1cn([C@H]2C[C@H](N=[N+]=[N-])[C@@H](COP([O-])(=S)OP(=O)(O)C(F)(F)P(=O)(O)O)O2)c(=O)[nH]c1=O | - | Ki | - | - | 0.09 µM
O=c1c2cccn2c2cc(Cl)c(Cl)cc2n1CCNC(=S)Nc1ccc(Br)cn1 | - | Ki | RT-Y181I | nucleotide incorporation | 0.3 µM
CNC(=O)CCCCC=C(c1cc(OC)c(OC)c(C(=O)OC)c1)c1cc(OC)c(OC)c(C(=O)OC)c1 | - | IC50 | - | nucleotide incorporation | 0.804 µM
N#Cc1cc(Cl)cc(Oc2c(Br)ccc(Cn3c(=O)[nH]c4ncccc43)c2F)c1 | - | IC50 | Wild type | scintillation proximity / radiometric | 0.006 µM
COc1cc2c(c(OC)c1OC)-c1c(cc3c(c1OC)OCO3)C[C@H](C)[C@@](C)(O)[C@H]2OC(=O)c1ccccc1 | - | IC50 | - | nucleotide incorporation | >100 µM
O=c1c2cccn2ccn1CCNC(=S)Nc1ccc(Br)cn1 | - | Ki | RT-Y181I | nucleotide incorporation | 0.43 µM
CCOC(=O)[C@@H](Cc1ccc(O)c(O)c1)OC(=O)/C=C/c1ccc(O)c(O)c1/C=C/c1ccc(O)c(O)c1 | - | IC50 | - | nucleotide incorporation / radiometric | 56.38 µg/mL
N#Cc1cc(Cl)cc(Oc2c(Br)ccc(Cn3cn[nH]c3=O)c2F)c1 | K103N/Y181C | IC50 | NNRTI-resistant (RT K103N/Y181C) | scintillation proximity / radiometric | 0.013 µM

Conditions beyond the fields shown may differ between rows. ICn is the concentration giving n% inhibition.